Compound potency records, mixed from different reports. Data source: NIAID ChemDB in PubChem.

Shared fields: toxicity to cultured cells; endpoint: CC50

An empty or dashed field is not shown. Conditions beyond the fields shown may differ between rows. CCn: concentration that lowers growth or viability of the cells by n%.

SMILES | cell line | method | result
CC(C)C[C@@H]1NC(=O)[C@H](Cc2c[nH]c3ccccc23)NC(=O)CNC(=O)[C@H](CCCCN)NC(=O)[C@H](C(C)C)NC(=O)[C@@H](CC(C)C)NC1=O | Lung carcinoma cells | MTT | 28.5 µM
CN[C@H](C(=O)N[C@H](CCC[C@@H](CO)N(CC(C)C)S(=O)(=O)c1ccc(CO)cc1)C1CC1)C(c1ccccc1)c1ccccc1 | T lymphoid cells | microscopy | >10 µM
CC(C)Oc1cccc(CCNC(=O)NCc2ccc(Cl)c(Cl)c2)n1 | PBMC | - | 6.9 µM
CN1CCN(c2ccc(OCCCCCOc3cccc(NC(N)=S)c3)cc2)CC1 | Ava5-EG(delta4AB)SEAP | MTS | >1 µM
CCOC(=O)c1c(N)c2cc(-c3ccccc3)cnc2n(O)c1=O | HeLa | - | <100 µM
CC(C)N(Cc1cccc(OCCCCCC(=O)OC(=O)O)c1)C(=O)c1ccc(-c2cccc3ccccc23)cc1 | HEK 293 | - | >20 µM
CC(C)C[C@@H]1NC(=O)[C@H](Cc2c[nH]c3ccccc23)NC(=O)CNC(=O)[C@H](CC(N)=O)NC(=O)[C@H](C(C)C)NC(=O)[C@H](CC(C)C)NC1=O | Lung carcinoma cells | MTT | >30 µM
O=C(NCC1CCc2ccccc2N1)Nc1cccc(Cl)c1 | PBMC | - | 50 µM
COC(=O)N[C@H](C(=O)N[C@@H](C)CCC[C@@H](CO)N(CCC(C)C)S(=O)(=O)c1ccc2ncsc2c1)C(c1ccccc1)c1ccccc1 | T lymphoid cells | microscopy | >10 µM
CC(C)CNC(=S)Nc1ccc2c(c1)Cc1cc(Br)ccc1-2 | Ava5-EG(delta4AB)SEAP | MTS | >1 µM
Cc1ccc(-n2ncc3c(NC(=O)Nc4ccc(OCc5ccccn5)cc4)ncnc32)c(C)c1 | HUH 9B | - | 18 µM
CCCNCc1cccc(OCCCCCC(=O)OCC)c1 | RAJI | - | >20 µM
CC(C)C[C@@H]1NC(=O)[C@H](Cc2c[nH]c3ccccc23)NC(=O)C(C)(C)NC(=O)[C@H](CCCCN)NC(=O)[C@H](C(C)C)NC(=O)[C@@H](CC(C)C)NC1=O | Lung carcinoma cells | MTT | >30 µM
CCOC(=O)CCCCCOc1cccc(CN(C(=O)c2ccc(-c3cccc(CC(=O)O)c3)cc2)C(C)C)c1 | BJ | - | >20 µM
NNC(=O)c1ccncc1 | Colorectal carcinoma | MTT | >30 µM
CCOC(=O)CCCCCOc1cccc(CN(C(=O)c2ccc(-c3ccco3)cc2)C(C)C)c1 | BJ | - | >20 µM
O=c1c(-c2ccccc2F)c(O)c2cccnc2n1O | HeLa | - | <100 µM
Cn1ccc2c(NC(=O)NCCc3ccc4c(n3)NCCC4)cccc21 | PBMC | - | 0.4 µM
Cc1ccc(-n2ncc3c(Nc4cccc(Br)c4)ncnc32)c(C)c1 | HUH 9B | - | 30 µM
CC(C)Oc1ccc(S(=O)(=O)NCCc2ccc3c(n2)NCCC3)cc1 | PBMC | - | 50 µM
CCCN([C@H](CO)CCC[C@H](CC)NC(=O)[C@@H](NC(=O)OC)C(c1ccccc1)c1ccccc1)S(=O)(=O)c1ccc(N)cc1 | T lymphoid cells | microscopy | >10 µM
O=C(NCCc1ccc2c(n1)NCCC2)Nc1ccc(Cl)cc1C(F)(F)F | PBMC | - | 25 µM
CCOC(=O)CCCCCOc1cccc(CN(C(=O)c2ccc(-c3cc4ccccc4n3S(=O)(=O)c3ccccc3)cc2)C(C)C)c1 | BJ | - | >20 µM
Cc1ccc(-n2ncc3c(Nc4ccc(-c5cnco5)cc4)ncnc32)c(C)c1 | HUH 9B | - | 26 µM
NC(=S)Nc1cccc(OCCCOc2ccccc2)c1 | Ava5-EG(delta4AB)SEAP | MTS | >1 µM
N#Cc1cccc(-c2cccc(NC(=O)NCCc3ccc4c(n3)NCCC4)n2)c1 | PBMC | - | 13 µM
O=C(c1c(O)c2cccnc2n(O)c1=O)N1CCCCC1 | HeLa | - | <100 µM
CCCN([C@H](CO)CCC[C@@H](NC(=O)[C@@H](NC(=O)OC)C(c1ccccc1)c1ccccc1)C1CC1)S(=O)(=O)c1ccc(N)cc1 | T lymphoid cells | microscopy | >10 µM
NC(=S)Nc1cccc(OCCCCCOc2ccccc2-c2ccc(C(F)(F)F)cc2)c1 | Ava5-EG(delta4AB)SEAP | MTS | >1 µM
COC(=O)N[C@H](C(=O)N[C@H](CCC[C@@H](CO)N(CCC(C)C)S(=O)(=O)c1ccc(N)c(F)c1)C(C)C)C(c1ccccc1)c1ccccc1 | T lymphoid cells | microscopy | >10 µM
COc1cc(C)ccc1OCCOc1ccccc1F | RAJI | - | >20 µM
COC(=O)N[C@H](C(=O)NC(C)(C)CCC[C@@H](CO)N(CC(C)C)S(=O)(=O)c1ccc(N)cc1)C(c1ccccc1)c1ccccc1 | T lymphoid cells | microscopy | >10 µM
CN(CCc1ccc2c(n1)NCCC2)C(=O)NCc1ccc(Cl)c(Cl)c1 | PBMC | - | 6.7 µM
S=C1NCCN1C(=S)Nc1cccc(OCc2ccccc2)c1 | Ava5-EG(delta4AB)SEAP | MTS | >1 µM
CN1CCN(Cc2cccc(CNc3cc(=O)n(O)c4ncccc34)c2)CC1 | HeLa | - | 0.07 µM
CCN(CC)c1ccc(OCCCCCOc2cccc(NC(N)=S)c2)cc1 | Ava5-EG(delta4AB)SEAP | MTS | >1 µM
Cc1ccc(CNC(=O)NCCc2cccc(-n3ccnc3)n2)cc1 | PBMC | - | 27 µM
CC[C@H](C)[C@@H]1NC(=O)[C@@H](CC(C)C)NC(=O)[C@H](CC(C)C)NC(=O)[C@H](Cc2c[nH]c3ccccc23)NC(=O)CNC(=O)[C@H](CC(N)=O)NC1=O | Colorectal carcinoma | MTT | >30 µM
Cc1ccc(Nc2ncnc3c2cnn3Cc2ccccc2)c(C)c1 | HUH 9B | - | 46 µM
CC(C)N(Cc1cccc(OCCCCCC(=O)OC(=O)O)c1)C(=O)c1ccc(-c2cccc(S(C)(=O)=O)c2)cc1 | RAJI | - | >20 µM
O=C(NCCc1cccc(-n2ccnc2)n1)NCc1ccc(F)cc1 | PBMC | - | 22 µM
S=C(NCCCc1ccccc1)Nc1ccc2c(c1)Cc1cc(Br)ccc1-2 | Ava5-EG(delta4AB)SEAP | MTS | >1 µM
CN1C(=O)c2c(c3cccnc3n(O)c2=O)NC1c1cccc(CN2CCOCC2)c1 | HeLa | - | <100 µM
CC(C)N([C@H](CO)CCCC(C)(C)NC(=O)[C@@H](N)Cc1ccccc1Cl)S(=O)(=O)c1ccc(N)cc1 | T lymphoid cells | microscopy | >10 µM

A second listing of 3 rows from above:

| SMILES | cell line | method | result |
|---|---|---|---|
| CCOC(=O)c1c(N)c2cc(-c3ccccc3)cnc2n(O)c1=O | HeLa | - | <100 µM |
| O=C(c1c(O)c2cccnc2n(O)c1=O)N1CCCCC1 | HeLa | - | <100 µM |
| NC(=S)Nc1cccc(OCCCOc2ccccc2)c1 | Ava5-EG(delta4AB)SEAP | MTS | >1 µM |